Measured values from several laboratories, pooled; numbers as filed in NIAID ChemDB.

All rows: tests in culture

An empty or dashed field is not shown. Percent inhibition refers to the dose given; in toxicity tests it is the harm to the cells. Neighbouring rows are from separate reports. MIC50, MIC90 and the like: level of inhibition, or share of isolates inhibited. ECn: concentration that inhibits the pathogen or its effect by n%. Zone: diameter of growth inhibition.

SMILES	strain or isolate	tested at	conditions	read-out	species	method	result
O=[N+]([O-])c1cc(CSc2cccc[n+]2[O-])cc([N+](=O)[O-])c1	20/I		24 h	EC80	Candida glabrata	broth dilution	>500 µM
CC(C)=CCOc1ccc(C2CC(=O)c3c(O)cc(O)cc3O2)cc1O		100 µg/mL		zone	Candida dubliniensis	agar diffusion / agar	0 mm
C[C@@H]1[C@H](O)[C@@H](C)/C=C/C=C/C=C/C=C/C=C/C=C/C=C/[C@H](OC2O[C@@H](C)[C@H](O)[C@@H](N)[C@H]2O)C[C@@H]2OC(O)(C[C@@H](O)C[C@@H](O)[C@H](O)CC[C@@H](O)C[C@@H](O)CC(=O)C[C@H]1C)C[C@H](O)[C@H]2C(=O)O	MTCC 1744			MIC	Candida parapsilosis		300 µg/mL
C[C@H]1[C@H](O)[C@@H](C)/C=C/C=C/C=C/C=C/C=C/C=C/C=C/[C@H](O[C@@H]2O[C@H](C)[C@@H](O)[C@H](N)[C@@H]2O)C[C@@H]2O[C@](O)(C[C@@H](O)C[C@@H](O)CC[C@H](O)[C@@H](O)C[C@@H](O)CC(=O)O[C@H]1C)C[C@H](O)[C@H]2C(=O)O	20/I	0.54 µM		inhibition	Candida glabrata	broth dilution	80%
CN(C/C=C/C#CC(C)(C)C)Cc1cccc2ccccc12	24 clinical isolates			MIC90	Candida guilliermondii	broth dilution	>16 µg/mL
C[C@@H](c1nc(-c2ccc(C#N)cc2)cs1)[C@](O)(Cn1cnnc1)c1ccc(F)cc1F	A14058			MIC	Candida albicans		0.5 µg/mL
c1ccc([Se][Se]c2ccccc2)cc1	CBS 7987			MFC	Candida dubliniensis	broth dilution	32 µg/mL
C=CCOc1ccc(C2CC(=O)c3c(O)cc(O)cc3O2)cc1		100 µg/mL		zone	Candida dubliniensis	agar diffusion / agar	0 mm
C/C(=N\NC(=O)c1ccc([N+](=O)[O-])cc1)c1ccc(-n2ccnc2)cc1	ATCC 2001			MIC50	Candida glabrata	broth dilution	<0.68 µM
Nc1nc(=O)n([C@H]2CS[C@@H](CO)O2)cc1F	77 isolates			MIC90	Candida glabrata		0.25 µg/mL
C[C@@H]1[C@H](O)[C@@H](C)/C=C/C=C/CC/C=C/C=C/C=C/C=C/C(O[C@H]2O[C@H](C)[C@@H](O)[C@H](N)[C@@H]2O)CC2O[C@](O)(CC(O)C(O)CCC(O)CC(O)CC(O)CC(=O)O[C@H]1C)CC(O)C2C(=O)O	ATCC 2001			MIC50	Candida glabrata	broth dilution	1.05 µM
O=[N+]([O-])c1cc(C[Se]c2nnnn2C2CCCCC2)cc([N+](=O)[O-])c1	E28		24 h	EC80	Candida krusei	broth dilution	>500 µM
O=C(N/N=C\n1ccnc1)c1ccc(Cl)cc1	ATCC 2001			MIC50	Candida glabrata	broth dilution	15.7 µM
O=[N+]([O-])c1cc(CSc2nnnn2-c2ccc(Cl)c(Cl)c2)cc([N+](=O)[O-])c1	156		24 h	EC80	Candida tropicalis	broth dilution	>125 µM
C[C@@H](c1ncncc1F)[C@](O)(Cn1cncn1)c1ccc(F)cc1F	52 clinical isolates			MIC90	Candida parapsilosis	broth dilution	0.062 µg/mL
OC(Cn1cncn1)(Cn1cncn1)c1ccc(F)cc1F	YL 349			MIC	Candida albicans	broth dilution	>512 µg/mL
Clc1ccc(COC(Cn2ccnc2)c2ccc(Cl)cc2Cl)c(Cl)c1	ICB 12			MIC100	Candida albicans	broth dilution	32 µg/mL
O=Cc1cccc(O)c1O	PYCC 2705			EC50	Candida lusitaniae	broth dilution / turbidity	0.16 µM
CCC(C)n1ncn(-c2ccc(N3CCN(c4ccc(OC[C@H]5CO[C@](Cn6cncn6)(c6ccc(Cl)cc6Cl)O5)cc4)CC3)cc2)c1=O	77 isolates			MIC90	Candida glabrata		4 µg/mL
O=C(O)c1ccccc1	PYCC 2705			EC50	Candida lusitaniae		0.06 µM
C/C(=N\NC(N)=S)c1ccc(-n2ccnc2)cc1	ATCC 2001			MIC50	Candida glabrata	broth dilution	>964 µM
O=[N+]([O-])c1cc(CSc2nnnn2C2CCCCC2)cc([N+](=O)[O-])c1	E28		24 h	EC80	Candida krusei	broth dilution	>500 µM
O=C(N/N=C/c1ccc(-n2ccnc2)cc1)c1ccccc1	ATCC 2001			MIC50	Candida glabrata	broth dilution	>861.1 µM
CC(C)=CCOc1ccc(C2CC(=O)c3c(O)cc(O)cc3O2)cc1		100 µg/mL		zone	Candida dubliniensis	agar diffusion / agar	0 mm
COc1ccc([Se][Se]c2ccc(OC)cc2)cc1				MIC	Candida dubliniensis	broth dilution	8 µg/mL
C[C@H](Cc1ccc(O)c(O)c1)[C@@H](C)Cc1ccc(O)c(O)c1	CCC 117-2000			MIC50	Candida krusei	broth dilution	250 µg/mL
C[C@H]1[C@H](O)[C@@H](C)/C=C/C=C/C=C/C=C/C=C/C=C/C=C/[C@H](O[C@@H]2O[C@H](C)[C@@H](O)[C@H](N)[C@@H]2O)C[C@@H]2O[C@](O)(C[C@@H](O)C[C@@H](O)CC[C@H](O)[C@@H](O)C[C@@H](O)CC(=O)O[C@H]1C)C[C@H](O)[C@H]2C(=O)O	CBS 12			MIC	Candida rugosa	broth dilution	0.07 µg/mL
O=C(OC1Cc2c(O)cc(O)cc2OC1c1cc(O)c(O)c(O)c1)c1cc(O)c(O)c(O)c1	Clinical isolate 4			MIC50	Candida tropicalis	broth dilution	>128 µg/mL
Cc1ccc(C(C)C)c(O)c1	PYCC 2705			EC50	Candida lusitaniae	broth dilution / turbidity	0.18 µM

Repeating the final 3 entries:

SMILES,strain or isolate,tested at,conditions,read-out,species,method,result
C[C@H]1[C@H](O)[C@@H](C)/C=C/C=C/C=C/C=C/C=C/C=C/C=C/[C@H](O[C@@H]2O[C@H](C)[C@@H](O)[C@H](N)[C@@H]2O)C[C@@H]2O[C@](O)(C[C@@H](O)C[C@@H](O)CC[C@H](O)[C@@H](O)C[C@@H](O)CC(=O)O[C@H]1C)C[C@H](O)[C@H]2C(=O)O,CBS 12,,,MIC,Candida rugosa,broth dilution,0.07 µg/mL
O=C(OC1Cc2c(O)cc(O)cc2OC1c1cc(O)c(O)c(O)c1)c1cc(O)c(O)c(O)c1,Clinical isolate 4,,,MIC50,Candida tropicalis,broth dilution,>128 µg/mL
Cc1ccc(C(C)C)c(O)c1,PYCC 2705,,,EC50,Candida lusitaniae,broth dilution / turbidity,0.18 µM